# Experimental data: PMC9532970, “Rational design of photosynthetic reaction center protein maquettes” (Frontiers in Molecular Biosciences, 2022)
# Legend:
# RC maquette = test: Heme B retained by RC maquette after expression in E. coli and purification (UV/vis estimate)
# DH maquette = test: Heme B retained by DH maquette after expression in E. coli and purification (UV/vis estimate); settings: after IMAC, TEV cleavage and SEC, no exogenous heme
structure (smiles),measurement,setting,value
C=CC1=C(C)c2cc3[n-]c(cc4[n-]c(cc5nc(cc1n2)C(C)=C5C=C)c(C)c4CCC(=O)O)c(CCC(=O)O)c3C.[Fe+2] [heme B],"heme B remaining bound after purification, per mole of RC maquette","RC maquette; after Ni-NTA and SEC, no exogenous heme",~0.1 equivalents
same,fraction of protein that retained heme after purification,RC maquette; no exogenous heme added,~10%
same,"heme B contained after purification, per DH maquette",DH maquette,~0.25 molar equivalents
same,"heme B contained after purification, per binding site",DH maquette,~0.13 equivalents
